According to US6638947B2, “Carbocyclic and heterocyclic substituted semicarbazones and thiosemicarbazones and the use thereof” (Euro-Celtique S.A., priority 1997, dated 2003):

System: site 1 of the Na^+ channel
Experiment: Binding assay, site 1 of the Na^+ channel, [^3H] saxitoxin, forebrain membranes
Design: species or system rat

NC1=N[C@H](O)[C@H]2[C@H]3O[C@]4(O)O[C@@H]([C@@H](O)[C@@]2(N1)[C@@H]4O)[C@]3(O)CO [Tetrodotoxin]
IC50: 12 nM
